Pooled drug test results. Numbers come from NIAID ChemDB, via PubChem.

All rows: growth or infection tests; species: HIV-1; read by: cytopathic effect / MTT; endpoint: EC50

An empty or dashed field is not shown.

structure,strain or isolate,cells,mutations,value
Nc1ccn([C@H]2CC[C@@H](CO)O2)c(=O)n1,IIIB,MT-4,-,0.26 µg/mL
C[C@H]1C(=O)Nc2ccc(Cl)cc2CN1Cc1ccccc1,-,MT-4,-,81 µM
Cc1ccc(S(=O)(=O)c2c(C(=O)NNCCO)[nH]c3ccc(Cl)cc23)c(C)c1,IIIB,MT-4,-,0.08 µM
c1ccc(-c2nnc3n2-c2ccccc2-n2c(-c4ccccc4)nnc2C3N2CCOCC2)cc1,IIIB,MT-4,-,>32 µM
CC(C)=CCC(Cc1c(O)cc(O)c2c1O[C@H](c1cc3c(cc1O)O[C@@H](c1ccc(O)cc1)[C@@H]3c1cc(O)cc(O)c1)CC2=O)C(=O)O,IIIB,MT-4,-,>200 µg/mL
CCCN(C)c1c(Cc2cc(C)cc(C)c2)c(CC)c(C)[nH]c1=O,Recombinant,MT-4,RT-Y181C,0.398 µM
CC(C)=CCc1c(O)cc(O)c2c1O[C@H](c1ccc(O)cc1)CC2=O,IIIB,MT-4,-,>200 µg/mL
CC1c2nnc(-c3ccc(Cl)cc3)n2-c2ccccc2-n2c(-c3ccc(Cl)cc3)nnc21,IIIB,MT-4,-,>12 µM
Cc1cn([C@H]2C[C@H](N=[N+]=[N-])[C@@H](CO)O2)c(=O)[nH]c1=O,IIIB,MT-4,-,0.0053 µM
O=C1CNCc2cc(Cl)ccc2N1,-,MT-4,-,>1100 µM
COc1c(O)ccc(C(=O)N[C@@H](CSc2ccccc2)[C@H](O)CN2C[C@H]3CCCC[C@H]3C[C@H]2C(=O)NC(C)(C)C)c1C,IIIB,MT-2,-,0.6533 µM
O=C(CN1CCN(c2cc3c(cc2F)c(=O)c(C(=O)O)cn3C2CC2)CC1)OC[C@@H]1CC[C@H](n2cnc3c(=O)[nH]cnc32)O1,IIIB,MT-4,-,3.12 µM
CC1c2nnc(Cc3ccccc3)n2-c2ccccc2-n2c(Cc3ccccc3)nnc21,IIIB,MT-4,-,>200 µM
Fc1cccc(F)c1C1OCc2nc3ccccc3n21,IIIB,CEM,-,3.81 µM
C[C@H](NC[C@@H](O)[C@H](O)CN[C@@H](C)c1ccccc1)c1ccccc1,Z2Z6,PM1,-,4 µM
CC1c2n[nH]c(=O)n2-c2ccccc2-n2c1n[nH]c2=O,IIIB,MT-4,-,>200 µM
CCn1cc(C(=O)O)c(=O)c2cc(F)c(N3CCN(CC(=O)OC[C@@H]4CC[C@H](n5cnc6c(=O)[nH]cnc65)O4)CC3)cc21,IIIB,MT-4,-,1.16 µM
O=C(NCc1ccccc1)[C@@H](O)[C@H](O)C(=O)NCc1ccccc1,Z2Z6,PM1,-,>100 µM
C#C[C@]1(CO)O[C@@H](n2cc(CC)c(=O)[nH]c2=O)C[C@@H]1O,LAI,MT-4,-,>400 µM
c1ccc2c(c1)-n1c(nnc1-c1ccncc1)Cc1nnc(-c3ccncc3)n1-2,IIIB,MT-4,-,>200 µM
CC(C)=CCN1C(=O)c2cc(Cl)ccc2NC(=O)C1C,-,MT-4,-,>100 µM
C#CC1(CO)O[C@@H](n2cc(C)c(=O)[nH]c2=O)[C@H](O)[C@@H]1O,LAI,MT-4,-,>400 µM
CC(C)=CCC/C(C)=C/Cc1c(O)cc(O)c2c1O[C@H](c1ccc(O)cc1)CC2=O,IIIB,MT-4,-,>200 µg/mL
COc1cccc(-c2nnc3n2-c2ccccc2-n2c(-c4cccc(OC)c4)nnc2C3C)c1,IIIB,MT-4,-,>200 µM
Cc1cc(C)cc(S(=O)(=O)c2c(C(N)=O)[nH]c3ccc(Cl)cc23)c1,-,MT-4,RT-K103N Y181C,0.8 µM
C#C[C@]1(CO)O[C@@H](n2cnc3c(N)ncnc32)C[C@@H]1O,LAI,MT-4,-,0.00098 µM
CC(C)=CCC/C(C)=C/Cc1c(O)cc2c(c1O)C(=O)C[C@@H](c1c(O)cc(O)cc1O)O2,IIIB,MT-4,-,>200 µg/mL
C#CC1(CO)O[C@@H](n2cc(/C=C/Br)c(=O)[nH]c2=O)C[C@@H]1O,LAI,MT-4,-,>15 µM
C[C@H]1C(=O)Nc2ccc(Cl)cc2CN1CC1CC1,-,MT-4,-,>100 µM
c1ccc(Cc2nnc3n2-c2ccccc2-n2c(Cc4ccccc4)nnc2C3)cc1,IIIB,MT-4,-,>58 µM
Cc1cc(C)cc(S(=O)(=O)c2c(C(=O)NNCCO)[nH]c3ccc(Cl)cc23)c1,-,MT-4,RT-Y181C,0.01 µM
O=C1C[C@@H](c2ccc(O)cc2)Oc2cc(O)cc(O)c21,IIIB,MT-4,-,>200 µg/mL
Cc1cccc(S(=O)(=O)c2c(C(=O)NNCCO)[nH]c3ccc(Cl)cc23)c1,-,MT-4,RT-K103N Y181C,20 µM
CCOC(=O)[C@H](Cc1c[nH]c2ccccc12)NC(=O)[C@@H](O)[C@H](O)C(=O)N[C@@H](Cc1c[nH]c2ccccc12)C(=O)OCC,Z2Z6,PM1,-,>100 µM
CCC(=CCN1Cc2cc(Cl)ccc2NC(=O)C1C)CC,-,MT-4,-,2.6 µM
C[C@@H](NC[C@@H](O)[C@H](O)CN[C@H](C)c1ccccc1)c1ccccc1,Z2Z6,PM1,-,2 µM
CNC(=O)N1Cc2cc(Cl)ccc2NC(=O)[C@@H]1C,-,MT-4,-,>713 µM
C#C[C@]1(CO)O[C@@H](n2cnc3cncnc32)C[C@@H]1O,LAI,MT-4,-,135 µM
COc1c(N2CCN(CC(=O)OC[C@@H]3CC[C@H](n4cnc5c(=O)[nH]cnc54)O3)CC2)c(F)cc2c(=O)c(C(=O)O)cn(C3CC3)c12,IIIB,MT-4,-,0.82 µM
CC(C)=CCN1Cc2cc(Cl)ccc2N(C)C(=O)C1C(C)C,-,MT-4,-,>100 µM

The last 3 rows once more:

structure | strain or isolate | cells | mutations | value
C#C[C@]1(CO)O[C@@H](n2cnc3cncnc32)C[C@@H]1O | LAI | MT-4 | - | 135 µM
COc1c(N2CCN(CC(=O)OC[C@@H]3CC[C@H](n4cnc5c(=O)[nH]cnc54)O3)CC2)c(F)cc2c(=O)c(C(=O)O)cn(C3CC3)c12 | IIIB | MT-4 | - | 0.82 µM
CC(C)=CCN1Cc2cc(Cl)ccc2N(C)C(=O)C1C(C)C | - | MT-4 | - | >100 µM

Neighbouring rows are from separate reports. ECn is the concentration giving n% inhibition of infection, replication or growth.